The target of this assay is T1, LongSpyTag-AP205-LongSpyTag (bacteriophage AP205).
T1 chain: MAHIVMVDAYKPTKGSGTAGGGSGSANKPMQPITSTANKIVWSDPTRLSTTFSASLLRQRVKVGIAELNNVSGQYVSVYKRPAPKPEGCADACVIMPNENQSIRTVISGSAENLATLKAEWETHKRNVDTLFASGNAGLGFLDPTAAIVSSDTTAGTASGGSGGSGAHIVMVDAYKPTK

Data on 1 molecule can be found in patent US20200115420A1 (UNIVERSITY OF COPENHAGEN, published 2020).

B1: HIS-GMZ2ggsSpyCatcher (other)
chain: GSTSENRNKRIGGPKLRGNVTSNIKFPSDNKGKIIRGSNDKLNKNSEDVLEQSEKSLVSENVPSGLDIDDIPKESIFIQEDQEGQTHSELNPETSEHSKDLNNNGSKNESSDIISENNKSNKVQNHFESLSDLELLENSSQDNLDKDTISTEPFPNQKHKDLQQDLNDEPLEPFPTQIHKDYKEKNLINEEDSEPFPRQKHKKVDNHNEEKNVFHENGSANGNQGSLKLKSFDEHLKDEKIENEPLVHENLSIPNDPIEQILNQPEQETNIQEQLYNEKQNVEEKQNSQIPSLDLKEPTNEDILPNHNPLENIKQSESEINHVQDHALPKENIIDKLDNQKEHIDQSQHNINVLQENNINNHQLEPQEKPNIESFEPKNIDSEIILPENVETEEIIDDVPSPKHSNHETFEEETSESEHEEAVSEKNAHETVEHEETVSQESNPEKADNDGNVSQNSNNELNENEFVESEKSEHEARSKAKEASSYDYILGWEFGGGVPEHKKEENMLSHLYVSSKDKENISKENDDVLDEKEEEAEETEEEELEEKNEEETESEISEDEEEEEEEEEKEEENDKKKEQEKEQSNENNDQKKDMEAQNLISKNQNNNEKNVKEAAESIMKTLAGLIKGNNQIDSTLKDLVEELSKYFKNHGGSGAMVDTLSGLSSEQGQSGDMTIEEDSATHIKFSKRDEDGKELAGATMELRDSSGKTISTWISDGQVKDFYLYPGKYTFVETAAPDGYEVATAITFTVNEQGQVTVNGKATKGDAHI
notes: also called GMZ2: SpyC; A7
For B1, the binding result was “binds”.
